Pooled drug test results. Numbers come from NIAID ChemDB, via PubChem.

Shared fields: whole-cell or culture tests; agent: Plasmodium falciparum; measure: EC50

ECn: concentration that inhibits the pathogen or its effect by n%. Blank or dashed fields: not listed here. Rows are shuffled and stem from different studies.

structure,strain,changes,method,result
CCCCCCCCCCCC(=O)NC(CCCC[NH3+])C(=O)NC(CCCC[NH3+])C(=O)NCCCCCCCCCC(=O)NC(CCCC[NH3+])C(=O)NC(CCCC[NH3+])C(=O)NCCCCCCCCCC(=O)NC(CCCC[NH3+])C(N)=O,NF54,-,hypoxanthine uptake,>10 µM
CCCCC1CC2CCCC3CC(C)NC(=N1)N23,W2,-,LDH,5.62 µM
O=C1NC(c2c[nH]c3ccc(Br)cc23)Nc2ccccc21,D6,-,LDH,>14.43 µM
C[C@H]1CCc2c([nH]c3ccccc23)[C@@]2(N1)C(=O)Nc1ccc(Cl)cc12,KAE609R-3,KAE609-resistant (D1247Y),SYBR Green / fluorescence,0.119 µM
COC(=O)c1ccc(-c2cc(Cl)cc(C3(C4CCC4)C(C#N)=C(N)Oc4n[nH]c(C)c43)c2)cc1,NF54,-,radiometric,0.08 µM
CCCCCCCCCCCC(=O)NC(CCCC[NH3+])C(=O)NCCCCCCCCCCCC(=O)NC(CCCC[NH3+])C(=O)NCCCCCCCCCCCC(=O)NC(CCCC[NH3+])C(N)=O,FCR3,-,hypoxanthine uptake,0.9 µM
COc1cc(C(=O)/C=C/c2cc3c(cc2OC)CCC2C3CC[C@@]3(C)C2CC[C@@H]3O)ccc1O,NF54,-,LDH,97.84 µM
O=c1[nH]c(-c2c[nH]c3ccc(I)cc23)nc2ccccc12,D6,-,LDH,>14.43 µM
COc1cc2nc(N3CCCN(C)CC3)nc(NC3CCN(Cc4ccccc4)CC3)c2cc1OC,W2,-,fluorescence,0.052 µM
CCN(CC)CCCC(C)Nc1ccnc2cc(Cl)ccc12,3D7,-,SYBR Green,0.01 µM
CC(C)CCCC1CC2CCC3CC(C)NC(=N1)N23,D6,-,LDH,3.04 µM
NCCCCCCCC(=O)NC(CCCC[NH3+])C(=O)NCCCCCCCC(=O)NC(CCCC[NH3+])C(=O)NCCCCCCCC(=O)NC(CCCC[NH3+])C(N)=O,FCR3,-,hypoxanthine uptake,100 µM
COc1cc2c(cc1/C=C/C(=O)c1cc(OC)c(OC)c(OC)c1)C1CC[C@@]3(C)C(CC[C@@H]3O)C1CC2,NF54,-,LDH,2.07 µM
CCCCCCCC(=O)NC(CCCC[NH3+])C(=O)NCCCCCCCC(=O)NC(CCCC[NH3+])C(=O)NCCCCCCCC(=O)NC(CCCC[NH3+])C(=O)NCCCCCCCC(=O)NC(CCCC[NH3+])C(N)=O,FCR3,-,hypoxanthine uptake,15 µM
C[C@H]1Cc2c([nH]c3cc(Cl)c(F)cc23)[C@@]2(N1)C(=O)Nc1ccc(Cl)cc12,KAE609R-1,KAE609-resistant I398D/P990R/D1247Y,SYBR Green / fluorescence,0.0254 µM
Cc1[nH]nc2c1C(C)(c1cc(Cl)cc(Cl)c1)C(C#N)=C(N)O2,NF54,-,radiometric,>2.98 µM
Cn1nc(C(F)(F)F)c(-c2ccc(Br)cc2)c1NC(=O)Nc1ccc(F)cc1F,KAE609R-1,KAE609-resistant (I398F/P990R/D1247Y),SYBR Green / fluorescence,1.07 µM
CCCCCCCCCCCC(=O)NC(CCCC[NH3+])C(=O)NCCCCCCCC(=O)NC(CCCC[NH3+])C(=O)NCCCCCCCC(=O)NC(CCCC[NH3+])C(N)=O,FCR3,-,hypoxanthine uptake,0.2 µM
CCN(CC)CCN1C(=O)c2ccccc2NC1c1ccccc1F,3D7,-,luciferase,>20 µM
O=C(NCCN1CCCC1)c1sc(-c2ccccc2)nc1-c1ccccc1,3D7,-,-,>19.3 µg/mL
CC(C)=CCC[C@@H]1C[C@@H]2CCC[C@@H]3C[C@H](CCC=C(C)C)NC(=N1)N32,D6,-,LDH,1.69 µM
C#[N+][C@@H]1C2C([C@@]3(C)CCC(C(C)(C)Cl)O3)CC[C@](C)([N+]#C)C2CC[C@@]1(C)O,3D7,-,SYBR Green,0.0084 µM
COc1ccc2c(c1O)C(=O)c1ccc(C)cc1C2=O,3D7,-,-,>37 µM
CCN(CC)CCN1C(=O)c2ccccc2NC1c1ccc(Cl)cc1Cl,3D7,-,luciferase,>20 µM
CN(C)c1cc[n+](-c2ccc(C[n+]3cnc(N)c4[nH]cnc43)cc2)cc1,3D7,-,SYBR Green,>22.7 µM
CCN(CC)CCN1C(=O)c2ccccc2NC1c1ccc(OC)c(COc2cc(C(C)C)c(Cl)cc2C)c1,3D7,-,luciferase,2.55 µM
COc1cc2c(cc1/C=C/C(=O)c1ccc(Cl)cc1)C1CC[C@@]3(C)C(CC[C@@H]3O)C1CC2,NF54,-,LDH,160 µM
CC(=O)O[C@H]1CC2C(C3CC[C@H](C(C)CCCN(CCCNc4ccnc5cc(Cl)ccc45)CCCC(C)[C@H]4CCC5C6C(C[C@H](OC(C)=O)[C@@]54C)[C@@]4(C)CC[C@@H](NC(=O)OC(C)(C)C)C[C@H]4C[C@H]6OC(C)=O)[C@]31C)[C@H](OC(C)=O)C[C@@H]1C[C@H](NC(=O)OC(C)(C)C)CC[C@]21C,TM91C235,-,SYBR Green,0.369 µM
CCCCCCCCCCCC(=O)NC(CCCC[NH3+])C(=O)NCCCCCCCC(=O)NC(CCCC[NH3+])C(=O)NCCCCCCCC(=O)NC(CCCC[NH3+])C(=O)NCCCCCCCC(=O)NC(CCCC[NH3+])C(=O)NCCCCCCCC(=O)NC(CCCC[NH3+])C(N)=O,FCR3,-,hypoxanthine uptake,2.4 µM
CN(C)CCNC(=O)c1sc(-c2ccccc2)nc1-c1ccccc1,3D7,-,-,>19.3 µg/mL
C=CCC[C@@H]1C[C@@H]2CC[C@@H]3C[C@H](CCC=C)NC(=N1)N32,D6,-,LDH,10.62 µM
O=Cc1cc2c(cc1O)C(=O)c1ccccc1C2=O,3D7,-,-,0.63 µM
CCCCCCCCCC1CC2CCC3CC(C)NC(=N1)N23,D6,-,LDH,4.59 µM
O=Cc1c(O)cc2c(c1O)C(=O)c1ccccc1C2=O,3D7,-,-,72.46 µM
CCN(CC)CCCNC(=O)c1ccc(-c2cc(C#N)cc(C3(C(C)C)C(C#N)=C(N)Oc4n[nH]c(C)c43)c2)s1,NF54,-,radiometric,1.16 µM
CCN(CC)CCN1C(=O)c2ccccc2NC1c1ccc(OC)c(COc2ccc(F)cc2)c1,3D7,-,luciferase,>20 µM
O=C(NCCN1CCOCC1)c1sc(-c2ccccc2)nc1-c1ccccc1,3D7,-,-,>19.3 µg/mL
Cc1[nH]nc2c1C(c1cc(Cl)cc(C#N)c1)(C1CC=CC1)C(C#N)=C(N)O2,NF54,-,radiometric,0.27 µM
CCN(CC)CCN1C(=O)c2ccccc2NC1c1ccc(C)cc1,3D7,-,luciferase,1.62 µM
COc1cc2c(cc1C1CC(=O)c3cc(OC)c(OC)c(OC)c31)C1CC[C@@]3(C)C(CCC[C@@H]3OC(C)=O)C1CC2,NF54,-,LDH,16.39 µM
CCN(CC)CCN1C(=O)c2ccccc2NC1c1ccc2c(c1)OCO2,3D7,-,luciferase,>20 µM
Cc1[nH]nc2c1C(c1cc(C#N)cc(-c3ccc(C(=O)NCCCN4CCN(C)CC4)s3)c1)(C(C)C)C(C#N)=C(N)O2,TM90C2B,-,radiometric,1.33 µM
C=CC(C)(C)c1ccc2c3c(c[nH]c13)C[C@@H](CO)NC(=O)[C@H]([C@@H](C)CC)N2,Dd2,-,-,19.67 µM
CCN(CC)CCN1C(=O)c2ccccc2NC1c1cc(OC)c(OC)c(OC)c1,3D7,-,luciferase,>20 µM

A second listing of 5 rows from above:

structure,strain,changes,method,result
CCCCCCCCCCCC(=O)NC(CCCC[NH3+])C(=O)NCCCCCCCC(=O)NC(CCCC[NH3+])C(=O)NCCCCCCCC(=O)NC(CCCC[NH3+])C(N)=O,FCR3,-,hypoxanthine uptake,0.2 µM
CCCCCCCC(=O)NC(CCCC[NH3+])C(=O)NCCCCCCCC(=O)NC(CCCC[NH3+])C(=O)NCCCCCCCC(=O)NC(CCCC[NH3+])C(=O)NCCCCCCCC(=O)NC(CCCC[NH3+])C(N)=O,FCR3,-,hypoxanthine uptake,15 µM
COc1cc(C(=O)/C=C/c2cc3c(cc2OC)CCC2C3CC[C@@]3(C)C2CC[C@@H]3O)ccc1O,NF54,-,LDH,97.84 µM
COc1cc2c(cc1C1CC(=O)c3cc(OC)c(OC)c(OC)c31)C1CC[C@@]3(C)C(CCC[C@@H]3OC(C)=O)C1CC2,NF54,-,LDH,16.39 µM
O=C1NC(c2c[nH]c3ccc(Br)cc23)Nc2ccccc21,D6,-,LDH,>14.43 µM